Measurements reported in publication PMC7460214, “α-Conotoxin as Potential to α7-nAChR Recombinant Expressed in Escherichia coli” (2020).

Chains of the proteins cited; added tags and fusions are not shown. Residues count along the entry.
UniProt P36544, 23-502 limits assumed: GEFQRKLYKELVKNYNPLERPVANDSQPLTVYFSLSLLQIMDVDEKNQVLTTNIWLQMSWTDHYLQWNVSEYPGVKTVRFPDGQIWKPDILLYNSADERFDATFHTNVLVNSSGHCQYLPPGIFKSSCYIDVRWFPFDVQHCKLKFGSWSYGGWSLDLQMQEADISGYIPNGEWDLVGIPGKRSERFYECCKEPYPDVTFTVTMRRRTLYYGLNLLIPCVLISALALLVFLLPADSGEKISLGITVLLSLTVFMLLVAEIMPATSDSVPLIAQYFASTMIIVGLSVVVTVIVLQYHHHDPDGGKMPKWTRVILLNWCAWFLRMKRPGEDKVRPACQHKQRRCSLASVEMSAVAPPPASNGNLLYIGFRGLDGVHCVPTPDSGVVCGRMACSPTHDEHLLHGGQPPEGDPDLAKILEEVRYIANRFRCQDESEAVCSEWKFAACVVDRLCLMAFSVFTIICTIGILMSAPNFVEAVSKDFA

Target: hα7 nAChR (Homo sapiens, UniProt P36544)

Structure (SMILES)	IC50 [nM]
CC(C)[C@@H]1NC(=O)[C@H](Cc2cnc[nH]2)NC(=O)[C@@H]2CCCN2C(=O)[C@H](CC(N)=O)NC(=O)[C@H](CC(N)=O)NC(=O)[C@H](C(C)C)NC(=O)[C@H](CCCNC(=N)N)NC(=O)[C@@H]2CSSC[C@H](NC(=O)[C@H](CCC(=O)O)NC(=O)[C@@H](N)CC(=O)O)C(=O)N[C@@H](CSSC[C@@H](C(=O)N[C@@H](CCCNC(=N)N)C(=O)N[C@@H](CCCNC(=N)N)C(=O)N[C@@H](CCCNC(=N)N)C(=O)O)NC1=O)C(=O)N[C@@H](CO)C(=O)N[C@@H](CC(N)=O)C(=O)N1CCC[C@H]1C(=O)N[C@@H](C)C(=O)N2	18.5
CC(C)C[C@@H]1NC(=O)[C@H](CCCNC(=N)N)NC(=O)[C@@H]2CSSC[C@H](NC(=O)[C@H](CCC(=O)O)NC(=O)[C@@H](N)CC(=O)O)C(=O)N[C@@H](CSSC[C@@H](C(=O)N[C@@H](CCCNC(=N)N)C(=O)N[C@@H](CCCNC(=N)N)C(=O)N[C@@H](CCCNC(=N)N)C(=O)O)NC(=O)[C@H](C)NC(=O)[C@H](Cc3c[nH]cn3)NC(=O)[C@@H]3CCCN3C(=O)[C@H](CC(N)=O)NC(=O)[C@H](CC(N)=O)NC1=O)C(=O)N[C@@H](CO)C(=O)N[C@@H](CC(N)=O)C(=O)N1CCC[C@H]1C(=O)N[C@@H](C)C(=O)N2	9.7
